Results of unrelated studies side by side (data: NIAID ChemDB).

Shared fields: whole-cell or culture tests; species: Mycobacterium tuberculosis

Rows are shuffled and stem from different studies.

SMILES | method | changes | read-out | cells | strain or isolate | dose | value
CCC(CO)n1c(C)c(CN2CCSCC2)c(CO)c1-c1ccccc1 | - | - | MIC | - | 27294 | - | >16 µg/mL
CCCCCCCN1C(=O)c2cc(Cl)nnc2Oc2ccc3ccccc3c21 | BACTEC | - | EC50 | - | H37Rv | - | >12.5 µg/mL
O=C(Nc1ccccc1)N1CCc2c(c(-c3ccccc3)nn2Cc2cn(-c3ccc(Br)cc3)nn2)C1 | visual reading | - | MIC | - | H37Rv | - | 90.18 µM
CN1CCN(c2ccccc2NCc2cccc3ccccc23)CC1 | - | - | MIC | - | 103471 | - | 4 µg/mL
O=C(O)c1ccncc1 | resazurin | - | MIC | - | CF45 | - | >25 µg/mL
O=C1CCCCCCCCCCCC(=O)OCO1 | BACTEC | - | MIC bound | - | H37Rv | - | >12.5 µg/mL
Cc1c(N)c(=O)[nH]c2ccccc12 | - | - | MIC | - | H37Rv | - | >6.25 µg/mL
CCOCc1ccc(-c2cc(-c3cc4cc(Br)ccc4nc3Cl)nc(N)n2)cc1 | broth dilution | - | inhibition | - | H37Rv | 5 µg/mL | 97%
Cc1cc(CN2CCN(c3ccc(F)cc3)CC2)c(-c2ccc(Cl)cc2)n1NC(=O)c1cnccn1 | - | - | MIC | - | 27294 | - | >16 µg/mL
Nc1nc(-c2cccs2)cc(-c2cc3cc(F)ccc3nc2Cl)n1 | broth dilution | - | inhibition | - | H37Rv | 6.25 µg/mL | 9%
FC(F)(F)c1cc(CSc2nc3ccccc3[nH]2)cc(C(F)(F)F)c1 | - | - | MIC | - | My 331/88 | - | 62 µM
NNC(=O)c1nnc(NN)[nH]c1=O | BACTEC | - | MIC | - | H37Rv | - | ≥12.5 µg/mL
CC(C)CSc1nc2ccccc2[nH]1 | - | - | MIC | - | My 331/88 | - | >250 µM
Cc1ccc2ccccc2c1-c1[nH]c(-c2ccc(Cl)cc2)cc1CN1CCN(Cc2ccc3c(c2)OCO3)CC1 | - | - | MIC | - | 27294 | - | >16 µg/mL
CCc1ccc(-n2cc(Cn3nc(-c4ccccc4)c4c3CCN(C(=O)Nc3ccccc3)C4)nn2)cc1 | visual reading | - | MIC | - | H37Rv | - | 49.64 µM
CCCC(=O)OCC1OC(n2ccc(O)cc2=O)C(O)C1O | BACTEC | - | inhibition | - | H37Rv | 12.5 µg/mL | 5%
COc1cc2c3c(cc4cc5c(cc4c3c1OC)OCO5)N(C=O)CC2 | resazurin | - | MIC | - | H37RvIr | - | >50 µg/mL
c1ccc2c(CNc3ccc(N4CCSCC4)cc3)cccc2c1 | - | - | MIC | - | 103471 | - | 8 µg/mL
O=C1C=C(Nc2cccc(O)c2)c2ccccc2C1=O | resazurin | - | MIC bound | - | H37Rv | - | >6.25 µg/mL
CCC(CO)NCCNCCCc1ccccc1 | - | - | MIC | - | - | - | 9.4 µM
Cn1cnc2c(NC(=O)Nc3ccc(Cl)cc3)nc(Cl)cc21 | visual reading | - | MIC99 | - | H37Rv | - | 25 µM
Cc1ccc(CSc2nc3ccccc3[nH]2)cc1 | - | - | MIC | - | My 331/88 | - | >125 µM
CCCCCN1C(=O)c2cc(Cl)nnc2Oc2ccccc21 | BACTEC | - | EC50 | - | H37Rv | - | >12.5 µg/mL
C[C@H]1Oc2nc([N+](=O)[O-])cn2C[C@@H]1OCc1ccc(OC(F)(F)F)cc1 | absorbance | - | MIC | - | H37Rv-T2 | - | >100 µM
CCCCCCCOc1c(C(C)=O)cc(N)c2nccc(CC)c12 | - | - | inhibition | - | H37Rv | 6.25 µg/mL | 73%
NNC(=O)c1ccncc1 | visual reading | - | MIC | - | H37Rv | - | ≤22.6 µM
COc1cc(C2CC(c3ccc(O)c(C)c3)=NN2)cc(OC)c1OC | - | - | MIC | - | H37Rv | - | >6.25 µg/mL
O=c1c(O)c(-c2cc(O)c(O)c(O)c2)oc2cc(O)cc(O)c12 | BACTEC | - | inhibition | - | H37Rv | 12.5 µg/mL | 28%
Cc1cc(C(=O)/C=C/c2cccc([N+](=O)[O-])c2)ccc1O | - | - | inhibition | - | H37Rv | 6.25 µg/mL | 65%
CO[C@H]1/C=C/O[C@@]2(C)Oc3c(C)c(O)c4c(=O)c(c5oc6cc(N7CCN(CC(C)C)CC7)cc(=O)c6nc5c4c3=C2O)NC(=O)/C(C)=C\C=C\[C@H](C)[C@H](O)[C@@H](C)[C@@H](O)[C@@H](C)[C@H](OC(C)=O)[C@@H]1C | - | - | MIC | - | H37Rv | - | 0.008 µg/mL
CCCCCN1C(=O)c2ccnnc2Oc2ccc(C)cc21 | BACTEC | - | inhibition | - | H37Rv | 12.5 µg/mL | 41%
CSCCC(NC(=O)C(CCSC)NS(=O)(=O)Cc1ccccc1)C(=O)NNc1ccccc1 | BACTEC | - | MIC bound | - | H37Rv | - | >12.5 µg/mL
CCCCCCn1c(C)cc(CN2CCOCC2)c1C | - | - | MIC | - | 103471 | - | 8 µg/mL
COC(=O)c1ccc(N2CCOS(=O)OCC2)cc1OC(=O)c1ccccc1 | BACTEC | - | MIC bound | - | H37Rv | - | >12.5 µg/mL
COc1ccc2cc([N+](=O)[O-])c3ccc(=O)oc3c2c1 | resazurin | - | MIC | - | MMDO | - | 50 µg/mL
CC1(C)[C@H]2CC[C@@H](CNCCNC3C4CC5CC(C4)CC3C5)[C@@H]1C2 | - | - | MIC | - | - | - | 50 µM
Cc1c(CN2CCN(Cc3ccc4c(c3)OCO4)CC2)cc(-c2ccccc2)n1NC(=O)c1cnccn1 | - | - | MIC | - | 27294 | - | >16 µg/mL
CC1CCCN(C(=S)S)C1.CC1CCCNC1 | BACTEC | - | MIC bound | - | H37Rv | - | ≤12.5 µg/mL
CC1COc2c(N3CCN(C)CC3)c(F)cc3c(=O)c(C(=O)O)cn1c23 | broth dilution | - | MIC | - | Rifampicin-resistant 19000 | - | 0.25–0.5 µg/mL
O=[N+]([O-])c1ccc(CSc2nc3ccccc3[nH]2)cc1 | - | - | MIC | - | My 331/88 | - | 62 µM
O=C(NCc1ccc(N2CCN(Cc3ccccc3)CC2)cc1)c1ccc([N+](=O)[O-])o1 | - | - | MIC | - | HN878 | - | 0.05 µg/mL
Cc1ccc(NC(=O)Nc2nc(Cl)cc3c2ncn3C)cc1 | visual reading | - | MIC99 | - | H37Rv | - | 12.5 µM
CC(=O)Nc1c(OC(C)=O)nc2ccc([N+](=O)[O-])cc2c1-c1ccccc1 | - | - | inhibition | - | H37Rv | 6.25 µg/mL | 0%
Nc1nc2c(C(=O)c3cccs3)nnn2c2cccc(Cl)c12 | BACTEC | - | inhibition | - | H37Rv | 12.5 µg/mL | 0%
Nc1c(-c2ccccc2)c2cc(Cl)ccc2[nH]c1=O | - | - | EC50 | - | H37Rv | - | >6.25 µg/mL
CCN1CCN(/N=C/c2c3c(O)c4c(O)c(C)c5c(c4c2O)C(=O)[C@@](C)(O/C=C/[C@H](OC)[C@@H](C)[C@@H](OC(C)=O)[C@H](C)[C@H](O)[C@H](C)[C@@H](O)[C@@H](C)/C=C/C=C(/C)C(=O)N3)O5)CC1 | BACTEC | - | MIC bound | - | H37Rv | - | ≤12.5 µg/mL
NNC(=O)c1ccncc1 | visual reading / absorbance | - | MIC90 | - | H37Rv | - | 0.07 µM
Fc1ccccc1CCNCCNCCC1=CCCCC1 | - | - | MIC | - | - | - | 25 µM
CC(C)CCN1C(=O)c2cc(Cl)nnc2Oc2ccc(Cl)cc21 | BACTEC | - | inhibition | - | H37Rv | 12.5 µg/mL | 30%
O=C(Nc1ccccc1)N1CCc2c(c(-c3ccccc3)nn2Cc2cn(-c3ccc(F)cc3)nn2)C1 | visual reading | - | MIC | - | H37Rv | - | >200 µM
N=C(N)c1ccc2oc(/C=C/c3ccc(-c4cc5cc(C(=N)N)ccc5o4)cc3)cc2c1 | BACTEC | - | MIC bound | - | H37Rv | - | >12.5 µg/mL
C=CCSc1nc2ccccc2[nH]1 | - | - | MIC | - | My 331/88 | - | 1000 µM
O=C(Nc1cccc2c(C3CCCCC3)cc(C3CCCCC3)nc12)C(F)(F)F | - | - | MIC | - | Isoniazid-resistant | - | 50 µg/mL
CSCCC(NS(=O)(=O)Cc1ccccc1)C(=O)NNc1ccccc1 | BACTEC | - | inhibition | - | H37Rv | 12.5 µg/mL | 16%
O=[N+]([O-])c1cccc(F)c1CSc1nc2ccccc2[nH]1 | - | - | MIC | - | My 331/88 | - | 62 µM
O=C1Cc2ccccc2/C1=C\c1cc2cc(Br)ccc2nc1Cl | broth dilution | - | inhibition | - | H37Rv | 6.25 µg/mL | 41%
CC[C@@H](CO)NCCN[C@@H](CC)CO | broth dilution | - | MIC | - | Beijing | - | 8 µg/mL
CC[C@H]1OC(=O)[C@H](C)[C@@H](O[C@H]2C[C@@](C)(OC)[C@@H](O)[C@H](C)O2)[C@H](C)[C@@H](O[C@@H]2O[C@H](C)C[C@H](N(C)C)[C@H]2O)[C@](C)(OC)C[C@@H](C)C(=O)[C@H](C)[C@@H](O)[C@]1(C)O | - | - | MIC | - | MDR-2 (MDR) | - | >8 µg/mL
CC12CCC(=O)C=C1CCC1C2C(O)CC2(C)C(c3csc(N)n3)CCC12.O=S(=O)(O)c1ccc(Br)cc1 | BACTEC | - | MIC bound | - | H37Rv | - | >6.25 µg/mL
Cn1cnc2c(NC(=O)Nc3ccc(C#N)cc3)nc(Cl)cc21 | visual reading | - | MIC99 | - | H37Rv | - | >25 µM
CCCCOc1c(C(C)=O)cc(N)c2nccc(CC)c12 | - | - | inhibition | - | H37Rv | 6.25 µg/mL | 0%
CC(C)=CCC/C(C)=C/CNCCN(Cc1ccccc1)Cc1ccccc1 | - | - | MIC | - | - | - | 25 µM
Fc1ccc(CSc2nc3ccccc3[nH]2)cc1 | - | - | MIC | - | My 331/88 | - | 125 µM
CC[C@@H](CO)NCCN[C@@H](CC)CO | visual reading / absorbance | EJMCh6C MmpL3  (G253E) | MIC90 | - | H37Rv | - | 7.7 µM
NS(=O)(=O)c1ccc(N=NC2Sc3nc4ccccc4n3C2=O)cc1 | BACTEC | - | MIC | - | H37Rv | - | ≥12.5 µg/mL
Cc1ccccc1C(=O)Nc1nc(Cl)cc2c1ncn2C | visual reading | - | MIC99 | - | H37Rv | - | >25 µM
Nc1nc(-c2ccc(Cl)c(Cl)c2)cc(-c2cc3cc(F)ccc3nc2Cl)n1 | broth dilution | - | inhibition | - | H37Rv | 6.25 µg/mL | 12%
CC(=O)Nc1ccc(C2=N/C(=C\c3ccc(Cl)c(Cl)c3)C(=O)O2)cc1 | BACTEC | - | MIC bound | - | H37Rv | - | >12.5 µg/mL
O=[N+]([O-])c1ccc(C2=NOC(c3ccc(N4CCN(Cc5ccccc5)CC4)cc3)C2)o1 | - | - | MIC | - | UT26 | - | 0.006 µg/mL
NNC(=O)c1ccncc1 | - | - | MIC | - | S-3M (susceptible) | - | 0.025 µg/mL
Cc1ccc(C(=O)Nc2nc(Cl)cc3c2ncn3C)cc1 | visual reading | - | MIC99 | - | H37Rv | - | >25 µM
CC(C)N.CC(C)NC(=S)S | BACTEC | - | inhibition | - | H37Rv | 12.5 µg/mL | 41%
C[C@]1(COc2ccc(N3CCC(Oc4ccc(OC(F)(F)F)cc4)CC3)cc2)Cn2cc([N+](=O)[O-])nc2O1 | - | - | MIC | - | UT26 | - | 0.012 µg/mL
CCCC/C(C)=N/NC(=S)SC | - | - | MIC | - | RMP-R | - | 6.4 µg/mL
CC(=O)c1cc([N+](=O)[O-])c2nc(C34CC5CC(CC(C5)C3)C4)ccc2c1 | - | - | inhibition | - | H37Rv | 6.25 µg/mL | 0%
COc1ccc(/C=C/C(=O)c2ccc(O)c(C)c2)cc1 | - | - | inhibition | - | H37Rv | 6.25 µg/mL | 72%
Cc1cc(CN2CCN(C)CC2)c(C)[nH]1 | - | - | MIC | - | 103471 | - | >64 µg/mL
O=c1[nH]c2ccc(Cl)cc2c(-c2ccccc2)c1-[n+]1ccccc1 | - | - | EC50 | - | H37Rv | - | >6.25 µg/mL
Cn1cnc2c(NS(=O)(=O)c3cccc(F)c3)nc(Cl)cc21 | visual reading | - | MIC99 | - | H37Rv | - | 6.5 µM
Oc1c2ccccc2c(O)c2nc3ccccc3nc12 | BACTEC | - | MIC bound | - | H37Rv | - | ≤12.5 µg/mL
O=[N+]([O-])c1cccc2c(C3CCCC3)cc(C3CCCC3)nc12 | - | - | MIC | - | Ethambutol-resistant | - | 25 µg/mL
Cc1[nH]c(-c2ccc(Cl)cc2)cc1CN1CCN(C)CC1 | - | - | MIC | - | 103471 | - | 8 µg/mL
O=C1OC2(c3ccc(O)cc3Oc3cc(O)ccc32)C2C3CCC(O3)C12 | BACTEC | - | MIC bound | - | H37Rv | - | >12.5 µg/mL
CC(=O)NC[C@H]1CN(c2ccc(N3CCOCC3)c(F)c2)C(=O)O1 | - | T460C Cys154Arg | MIC | - | linezolid resistant 8.7 | - | 32 µg/mL
Fc1cccc(Cl)c1CSc1nc2ccccc2[nH]1 | - | - | MIC | - | My 331/88 | - | >62 µM
Cc1cc(C2=NNC(c3ccc(N(C)C)cc3)C2)ccc1O | - | - | MIC | - | H37Rv | - | 6.25 µg/mL
Cc1cc2nc(CCC3CCCCC3)[nH]c2cc1C | visual reading / absorbance | 4/3 MmpL3 (V195A) | MIC90 | - | H37Rv | - | 2.9 µM
CCOC(=O)n1c(=O)nc2c3c(ncn21)Oc1c(c(-c2ccccc2)nn1-c1ccccc1)C3c1ccc(Cl)cc1 | resazurin | - | MIC | VERO | H37Rv | - | 6.25 µg/mL
Clc1cccc(CSc2nc3ccccc3[nH]2)c1 | - | - | MIC | - | My 331/88 | - | >125 µM

A second listing of 7 rows from above:

| SMILES | method | changes | read-out | cells | strain or isolate | dose | value |
|---|---|---|---|---|---|---|---|
| CSCCC(NC(=O)C(CCSC)NS(=O)(=O)Cc1ccccc1)C(=O)NNc1ccccc1 | BACTEC | - | MIC bound | - | H37Rv | - | >12.5 µg/mL |
| CC(C)=CCC/C(C)=C/CNCCN(Cc1ccccc1)Cc1ccccc1 | - | - | MIC | - | - | - | 25 µM |
| O=[N+]([O-])c1cccc(F)c1CSc1nc2ccccc2[nH]1 | - | - | MIC | - | My 331/88 | - | 62 µM |
| NNC(=O)c1nnc(NN)[nH]c1=O | BACTEC | - | MIC | - | H37Rv | - | ≥12.5 µg/mL |
| CCCCCCCN1C(=O)c2cc(Cl)nnc2Oc2ccc3ccccc3c21 | BACTEC | - | EC50 | - | H37Rv | - | >12.5 µg/mL |
| O=C(O)c1ccncc1 | resazurin | - | MIC | - | CF45 | - | >25 µg/mL |
| CC1(C)[C@H]2CC[C@@H](CNCCNC3C4CC5CC(C4)CC3C5)[C@@H]1C2 | - | - | MIC | - | - | - | 50 µM |

Two numbers with a dash give a range or band. ECn is the concentration giving n% inhibition of infection, replication or growth. Inhibition is in % at the dose shown (toxicity tests: loss of growth or viability). Blank or dashed fields: not listed here. MIC bound: limit read from a one-dose screen. A number after MIC or MFC names an inhibition level or a share of isolates.